The values below come from publication PMC7864571.

The exact form of at least one protein or probe is not confirmed. At least one verdict rests on a figure or table, not on a statement of the authors. Where a protein sequence is shown, tags need not be part of it.

For this series, the target named is T1, NXF1(RRM-LRR) (UniProt Q9UBU9).
T1 sequence (looked up): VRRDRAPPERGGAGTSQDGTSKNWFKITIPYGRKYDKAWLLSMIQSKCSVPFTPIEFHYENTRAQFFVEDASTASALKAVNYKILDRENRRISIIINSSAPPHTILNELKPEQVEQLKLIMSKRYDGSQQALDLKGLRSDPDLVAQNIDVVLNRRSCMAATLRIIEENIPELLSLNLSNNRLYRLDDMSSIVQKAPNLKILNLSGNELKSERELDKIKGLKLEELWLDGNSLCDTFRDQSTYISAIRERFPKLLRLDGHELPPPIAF
Kind of series: EMSA. To be noted: NXF1 (RRM-LRR) alone, 100 nM RNA, 10 mM Tris pH 8.0, 100 mM NaCl, 0.5 mM TCEP, 8% glycerol, 0.5 U/ul SUPERase-In, room temperature 10 min, 5% native PAGE, recombinant protein, residues 96-362, protein details: GST tag removed by TEV, label: 5' Alexa Fluor 488. In general terms: A gel shift assay detects complexes by their altered migration in electrophoresis.

In the case of UUUUUUUUUUUUUUU [poly(U) 15-mer RNA], the binding result is recorded as “binds”.
